In patent US20240208970A1, “SUBSTITUTED HYDANTOIN COMPOUNDS, METHODS FOR PREPARATION THEREOF AND USE THEREOF IN THE TREATMENT AND/OR PREVENTION OF A CORONA VIRUS DISEASE” (priority 2021, published 2024):

Biological target: SARS-CoV-2 M^pro protease (Severe acute respiratory syndrome coronavirus 2 (2019-nCoV) (SARS-CoV-2), UniProt P0DTD1)
Details: Tables 5B-5E; M^pro 75 nM, substrate 10 μM

Compound: O=C1NC2(CC(c3ccccc3Cl)C2)C(=O)N1c1cncc2c1CCCC2 (stereo not shown)
- IC50: 145 nM
